# PSTVd loop 1 mutant pool in Nicotiana benthamiana

The measurements come from Wu et al. 2024 (doi:10.1371/journal.ppat.1012142).

PSTVd intermediate strain, loop 1: wild type CCUCGG, pool pattern CNNNNG; 5' to 3', with the closing base pair.

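A pool of all variants was put on leaves of three Nicotiana benthamiana plants. Samples came from the inoculated region at 5 days, the leaf margin at 10 and upper systemic leaves at 12.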

Numbers give reads per thousand; 0 = not seen among the reads, higher = more abundant. Each site shows the three plants. "Pool" is the share in the plasmid pool used as inoculum, on the same scale. The inoculated region was read from the minus strand, the other sites from the plus strand. IR is the inoculated region, LM the leaf margin, Sys the systemic leaves. Wild type was 20.1 per thousand in the pool and the most common sequence in every sample (inoculated region 197, 219, 222; leaf margin 828, 823, 779; systemic leaves 914, 907, 857). Sequences that differ at fixed positions probably stem from PCR or sequencing errors, and defective variants can be carried along by functional ones. With 32,791-60,834 reads a sample, very low values are single reads.

sequence,pool,IR,LM,Sys
CCCUUG,4.02,2.73 2.85 2.82,0 0 0,0 0 0.0164
CCGAAG,4.10,2.88 3.07 2.88,0 0.0211 0.0305,0 0 0.0658
CCGACG,3.73,2.90 2.96 2.64,0 0.0211 0,0 0 0.0164
CCGAGG,3.46,3.14 2.38 2.89,0 0.0211 0,0 0 0
CCGAUG,3.23,3.14 2.62 2.29,0.0199 0.0211 3.99,0 0 0
CCGCAG,3.39,2.99 2.44 2.79,0 0 0.0305,0 0 0
CCGCCG,3.92,2.62 2.36 3.05,15.8 14.0 13.0,0 0 1.18
CCGCGG,4.02,3.06 3.62 2.84,0.199 0.423 0.244,4.39 3.84 3.95
CCGCUG,3.95,3.04 2.91 2.52,0 0 0,0 0 0.0329
CCGCUU,0.0131,0 0 0,0 0 0,0 0 0
CCGGAG,3.72,3.19 3.02 2.63,0 0 0,0 0 0
CCGGCG,3.78,2.71 2.59 2.52,0.0199 0 0,0 0 0
CCGGGG,3.32,2.69 3.32 2.66,0.0199 0.0211 0,0 0 0
CCGGUG,3.47,2.79 2.44 2.75,0 0.0211 0,0 0 0
CCGUAG,3.77,3.04 2.49 3.04,0.0199 0 0.0305,0 0 0.0164
CCGUCG,4.68,3.21 3.22 3.25,16.2 7.31 8.36,0 0 0.0493
CCGUGA,0.460,0.0185 0.131 0.125,0 0 0,0 0 0
CCGUGG,3.40,2.88 2.72 2.59,0.0199 0 0,0 0 0
CCGUUG,4.22,3.01 3.09 2.68,0 0 0,0 0 0.0164
CCUAAG,3.43,2.80 3.04 2.43,0 0 0,0 0 0
CCUACG,3.68,2.90 2.32 3.16,0 0.0423 0,0 0 0
CCUAGG,3.44,3.28 3.11 21.5,26.3 37.0 5.09,13.1 12.0 11.5
CCUAUG,4.36,2.99 3.06 2.57,0 0.0211 0.0305,0.0406 0 0.0493
CCUCAA,0.0131,0 0 0,0 0.0423 0,0 0 0
CCUCAG,3.28,3.10 2.94 2.80,8.20 0.232 0.366,0.142 0.126 0.164
CCUCCG,4.05,2.84 2.92 2.84,8.82 7.12 0,0.0609 0.0180 0
CCUCGA,0.342,0.590 0.244 0.339,0.478 0.697 0.366,5.08 3.97 3.63
CCUCGC,0.0131,0.0554 0 0.107,0.199 0.296 0.0305,0.0203 0.0539 0.0658
CCUCGG,20.1,197 219 222,828 823 779,914 907 857
CCUCGU,0.355,0.886 0.525 0.929,0.776 1.06 0.305,12.3 4.53 0.641
CCUCUC,0.0131,0 0 0,0 0 0,0 0 0
CCUCUG,5.16,4.74 3.60 4.20,0.995 1.25 42.7,17.8 27.8 19.8
CCUGAG,4.73,3.32 2.81 3.00,0 0 0.0305,0 0 0.0329
CCUGCG,4.10,2.84 2.61 2.88,0 0 0.0305,0 0 0
CCUGGG,3.34,3.49 2.70 3.63,0.139 0.507 0.183,4.89 7.60 7.45
CCUGGU,0.0263,0.0738 0.0375 0.0536,0 0 0,0.0203 0.0180 0.0164
CCUGUG,3.18,2.80 2.53 2.84,0 0.0211 0.0305,0.0203 0.0180 0
CCUUAG,3.59,2.80 2.53 2.47,0 0.0211 0.0305,0 0 0
CCUUCG,3.57,2.82 2.61 2.84,0 0 0,0 0.0180 0
CCUUGG,3.27,2.86 29.8 2.77,0.0995 0.254 0.0610,0.142 0.0719 0.0822
CCUUUG,3.55,2.97 3.11 2.45,0 0.0211 0,0 0 0
CGAAAG,3.77,2.62 3.07 2.52,0.0199 0 0,0 0 0
CGAACG,3.90,3.25 3.04 2.61,0 0 0.0305,0 0 0.0164
CGAAGG,3.42,2.29 2.62 2.45,0.0199 0.0423 0,0 0 0
CGAAUG,4.60,2.66 2.66 3.00,0.0199 0 0.0305,0 0 0.0822
CGACAG,3.36,2.93 2.72 2.93,0 0 0,0 0 0
CGACCG,3.56,2.93 2.68 2.64,0 0 0.0305,0 0 0.0329
CGACGG,3.51,3.08 2.46 2.48,0 0 0.0305,0 0 0.0329
CGACUG,3.42,2.79 3.13 2.82,0 0 0.0305,0 0 0.0329

The opening 3 entries, copied out:

sequence,pool,IR,LM,Sys
CCCUUG,4.02,2.73 2.85 2.82,0 0 0,0 0 0.0164
CCGAAG,4.10,2.88 3.07 2.88,0 0.0211 0.0305,0 0 0.0658
CCGACG,3.73,2.90 2.96 2.64,0 0.0211 0,0 0 0.0164